In US5811454A (priority 1993, dated 1998):

Tests used:
[1] = Chemical half-lives measured in a pH stat by titrating against NaOH; conditions: for Active Drug t1/2 (chemical half-life): pH stat, titration against NaOH; for Reactivity compared to non-fluorinated analogues (from chemical half-lives): in words
[2] = test system: colorectal cell line LS174T; conditions: read-out: Active Drug IC50, active drug alone, 1 h

| Structure (SMILES) | Active Drug t1/2 (chemical half-life) [1] [h] | Reactivity compared to non-fluorinated analogues (from chemical half-lives) [1] | IC50 [2] [µM] |
| --- | --- | --- | --- |
| O=C(O)c1ccc(N(CCCl)CCCl)c(F)c1 | 1.2 | activated | 270 |
| O=C(O)c1ccc(N(CCCl)CCCl)cc1F | 20.7 | deactivated | > 800 |
| O=C(O)c1ccc(N(CCCl)CCCl)cc1 | 5.4 |  |  |
